Experimental data reported in PMC6600181, “Reversal of MK-801-Induced Disruptions in Social Interactions and Working Memory with Simultaneous Administration of LY487379 and VU152100 in Mice” (International Journal of Molecular Sciences, 2019).

Experiments:
MK-801-treated mice [1] = assay: Social interaction test (MK-801-induced disruptions); design: species or system mice (male CD1); settings: mouse, in vivo
Procedure: (§1) Schedules of administration are presented graphically in Figure 1. […] Different vehicles were used throughout the study: (1) 0.9% NaCl, (2) 10% Tween 80 or (3) 10% Tween 80 containing 2% DMSO. Vehicles were administered to all animals (e.g., control mice, MK-801-treated mice) in the same schedule as drugs were administered to the drug-treated appropriate groups of mice.
(§2) Male CD1 mice (Charles River, Germany) weighing 20–25 g at the time of arrival were used in behavioural experiments. Animals were kept in standard laboratory cages T3 (265 × 420 × 180 mm, with an area of 825 cm^2), grouped at 10 mice per cage. Animals were kept under standard laboratory conditions (12:12 light:dark cycle, 21–22 °C) with free access to food and water. Animal welfare has been regularly controlled by a veterinarian and animal welfare committee. After 3–4 weeks of acclimatization and handling, the experiments began. Experimental groups consisted of 8 to 10 animals, depending on the procedure. Drugs were administered intraperitoneally (i.p.) at a volume of 10 mL/kg. […]
This procedure was adapted from de Moura Linck et al. and performed as described in our previous papers. […] Social interactions between the two mice were determined based on the total time spent participating in social behaviours, such as sniffing, genital investigation and chasing.

MK-801-treated mice [2] = assay: Novel object recognition test (MK-801-induced disruptions); design: species or system mice (male CD1); settings: mouse, in vivo
Procedure: as §1
as §2, with “procedure.” for “procedure. Drugs were administered intraperitoneally (i.p.) at a volume of 10 mL/kg.”
This procedure was adapted from Nilsson et al. and performed as described in a variety of our previous papers. […] Time spent exploring (i.e., sniffing or touching) the familiar (Tfamiliar) and novel (Tnovel) objects was measured by a trained observer, and the recognition index [%] was calculated for each mouse [(Tnovel – Tfamiliar)/(Tfamiliar + Tnovel)] * 100.

## CCN(Cc1ccncc1)C(=O)C(CO)c1ccccc1 (centres unmarked) [Tropicamide]
MK-801-treated mice [1]
  blockade of the effect of combined LY487379 and VU152100 in social interaction: blocked
MK-801-treated mice [2]
  blockade of the effect of combined LY487379 and VU152100 in novel object recognition: blocked
